For some of these results: Some results come without the dose or concentration used.
Legend:
Type in all cases: cell-based, HIV
[1] = test system: IIIB; assay: In vitro resistance selection in MT2 cells, cMAGI susceptibility, isolate IIIB; details: starting isolate IIIB, gp41 genotype
From the text: (§1) Assessment of biological properties included measurement of antiviral activity against HIV-1 strains. […] These assays score for reduction of infectious virus titer employing the indicator cell lines MAGI or the CCR5 expressing derivative cMAGI. Both cell lines exploit the ability of HIV-1 tat to transactivate the expression of a β-galactosidase reporter gene driven by the HIV-LTR. The β-gal reporter has been modified to localize in the nucleus and can be detected with the X-gal substrate as intense nuclear staining within a few days of infection. […] The number of infected cells for each control and peptide dilution was determined with the CCD-imager, and then the IC50 was calculated (expressed in μg/ml).
(§2) MT2 cells were infected with virus isolates (IIIB, 030, 060 and 098) and cultured in increasing concentrations of SEQ ID NO:2 (enfuvirtide) or SEQ ID NO:9 to select for resistance. […] Cultures were monitored for cytopathic effect (CPE) using standard techniques and when maximal CPE was achieved, a small aliquot of virus was used for subsequent rounds of infection. […] Peptide-free virus stocks were characterized for gp41 genotypic changes by dideoxy sequencing chemistries and phenotypic susceptibility was determined using a cMAGI infectivity assay.

[2] = test system: 584.000030; assay: In vitro resistance selection in MT2 cells, cMAGI susceptibility, isolate 584.000030
From the text: as §1, §2

[3] = test system: 584.000060; assay: In vitro resistance selection in MT2 cells, cMAGI susceptibility, isolate 584.000060
From the text: as §1, §2

[4] = test system: virus isolates (IIIB, 030, 060 and 098); assay: In vitro resistance selection, geometric mean over the four isolates
From the text: MT2 cells were infected with virus isolates (IIIB, 030, 060 and 098) and cultured in increasing concentrations of SEQ ID NO:2 (enfuvirtide) or SEQ ID NO:9 to select for resistance. The initial peptide concentration was approximately 2 times the IC50 of each peptide against the corresponding wild type isolate. Peptide concentrations were maintained by adding fresh peptide every 1-3 days. Cultures were monitored for cytopathic effect (CPE) using standard techniques and when maximal CPE was achieved, a small aliquot of virus was used for subsequent rounds of infection. Peptide concentrations were increased 2 to 4-fold depending on the length of time in culture when compared to the growth rate of wild type virus. During the course of selection, peptide-free virus stocks were also collected. Peptide-free virus stocks were characterized for gp41 genotypic changes by dideoxy sequencing chemistries and phenotypic susceptibility was determined using a cMAGI infectivity assay.

## enfuvirtide
[1]
  # of Mutations Acquired: 2
[2]; starting isolate 584.000030
  Days in Culture: 46 days
[2]; starting isolate 584.000030, gp41 genotype
  # of Mutations Acquired: 2
[3]; starting isolate 584.000060
  Days in Culture: 46 days
[3]; starting isolate 584.000060, gp41 genotype
  # of Mutations Acquired: 2
[4]
  # of Mutations Acquired: 1.7
[4]; Geometric Mean of four isolates
  Days in Culture: 49 days
